Data as given in PubChem BioAssay AID624099 (ICCB-Longwood, 2012)

Aim: 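Host factors E2 relies on to silence an HPV18 LCR reporter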 (primary screen)
System: human C33A cervical carcinoma cells (HPV-negative) stably expressing BPV1 E2 and an HPV18 LCR luciferase reporter
Knock-down reagent: siRNA pool against human genes, 40 nM
Timing: 72 h
Read-out: 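Per-well luciferase luminescence, z-scored on each plate against the plate mean and SD with control wells left out, then averaged across three replicate plates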
Direction: mean z-score and z-score: higher = stronger reporter signal, weaker E2 silencing
Hit rule: 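Hit if mean z-score reaches 2 and two or more of three replicate z-scores also reach 2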
The deposit covers about 21,000 reagents; below is a part drawn at random. 497 of them (2.4%) count as active. 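Higher z means weaker E2 silencing; only reporter increases were scored, and knock-downs that hurt cell survival may mask genuine repressor factors.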

With LOC400567 (retired record), how do the results read?
mean z-score: 0.2; z-score, replicate A: 0.41; z-score, replicate B: 0.31; z-score, replicate C: -0.12; activity call: inactive

For GOT1 (glutamic-oxaloacetic transaminase 1), what was measured?
mean z-score: 0.7; z-score, replicate A: 0.54; z-score, replicate B: 0.79; z-score, replicate C: 0.76; activity call: inactive

Which result is listed for ANKRD46 (ankyrin repeat domain 46)?
mean z-score: -0.62; z-score, replicate A: -0.59; z-score, replicate B: -0.34; z-score, replicate C: -0.93; activity call: inactive

With ALDH5A1 (aldehyde dehydrogenase 5 family member A1), what was measured?
mean z-score: -0.72; z-score, replicate A: -0.49; z-score, replicate B: -0.8; z-score, replicate C: -0.86; activity call: inactive

What did the screen give for SCO1 (synthesis of cytochrome C oxidase 1)?
mean z-score: -1.08; z-score, replicate A: -1; z-score, replicate B: -1.02; z-score, replicate C: -1.22; activity call: inactive

What is on record for LBX1 (ladybird homeobox 1)?
mean z-score: 4.01; z-score, replicate A: 4.23; z-score, replicate B: 3.77; z-score, replicate C: 4.03; activity call: active

With RASL10B (RAS like family 10 member B), what was measured?
mean z-score: -0.1; z-score, replicate A: -0.03; z-score, replicate B: 0.01; z-score, replicate C: -0.27; activity call: inactive

What is on record for CLEC7A (C-type lectin domain containing 7A)?
mean z-score: 0.83; z-score, replicate A: 0.68; z-score, replicate B: 0.85; z-score, replicate C: 0.97; activity call: inactive

For SDHB (succinate dehydrogenase complex iron sulfur subunit B), what does the deposit list?
mean z-score: -0.16; z-score, replicate A: 0.27; z-score, replicate B: -0.61; z-score, replicate C: -0.16; activity call: inactive

What did the screen give for RHOF (ras homolog family member F, filopodia associated)?
mean z-score: -0.38; z-score, replicate A: -0.17; z-score, replicate B: -0.47; z-score, replicate C: -0.49; activity call: inactive

Which result is listed for LOC389831?
mean z-score: 0.85; z-score, replicate A: 0.82; z-score, replicate B: 0.95; z-score, replicate C: 0.8; activity call: inactive

What did the screen give for RTN4 (reticulon 4)?
mean z-score: -0.93; z-score, replicate A: -0.99; z-score, replicate B: -0.82; z-score, replicate C: -0.99; activity call: inactive

Records above whose gene name starts with L or l (3):
LOC400567 (retired record) → mean z-score = 0.2; z-score, replicate A = 0.41; z-score, replicate B = 0.31; z-score, replicate C = -0.12; activity call = inactive
LBX1 (ladybird homeobox 1) → mean z-score = 4.01; z-score, replicate A = 4.23; z-score, replicate B = 3.77; z-score, replicate C = 4.03; activity call = active
LOC389831 → mean z-score = 0.85; z-score, replicate A = 0.82; z-score, replicate B = 0.95; z-score, replicate C = 0.8; activity call = inactive
